Compound potency records, mixed from different reports. Data source: NIAID ChemDB in PubChem.

Common to all: growth or infection tests; species: HIV-1

Blank or dashed fields: not listed here.

structure	mutations	endpoint	read by	setting	strain or isolate	cells	value
O=C(O)P(=O)(O)O		EC50	cytopathic effect		NDK	MOLT-4	44 µg/mL
Nc1ncnc2c1ncn2[C@@H]1O[C@H](CO)[C@H]1CO		EC50	cytopathic effect / trypan blue		IIIB	ATH8	<100 µM
Nc1ccn([C@@H]2CO[C@H](CO)S2)c(=O)n1		EC50	p24		CCR20	PBMC	1.1 µM
CCN1c2cc(C)c(C)cc2N(C)S(=O)(=O)c2cccnc21		EC50	cytopathic effect		RF	MT-4	0.3 µM
S=C(NCCc1ccccc1)Nc1ccc(Br)cn1		EC50	cytopathic effect		IIIB	MT-4	0.03 µM
OC[C@H]1N[C@H](CO)[C@@H](O)[C@@H]1O		EC50	cytopathic effect / MTT		IIIB	MT-4	>250 µg/mL
CC(C)=CCN1Cc2cc(Cl)cc3[nH]c(=S)n(c23)C[C@@H]1C		EC50	cytopathic effect		MN	C8166	0.0018 µM
Nc1nc2c(ncn2[C@@H]2C[C@H](CO)[C@H]2CO)c(=O)[nH]1		EC50	cytopathic effect / trypan blue		IIIB	ATH8	<1 µM
O=C(Cc1ccc(CC(=O)NCCCN2CCOCC2)cc1)NCCCN1CCOCC1		EC50	MTT			MT-4	>280 µM
Cc1cn([C@H]2C[C@H](N=[N+]=[N-])[C@@H](CO)O2)c(=O)[nH]c1=O	RT-Y181C	EC50	cytopathic effect / XTT		NL4-3	CEM + CEM-SS	0.01 µM
Nc1ccn([C@@H]2O[C@H](CO)C[C@@H]2F)c(=O)n1		EC50	cytopathic effect		NDK	MOLT-4	0.44 µg/mL
CCN1c2ncc(CCc3ccc(OCP(=O)(O)O)cc3)cc2C(=O)N(C)c2cccnc21	Y181C	EC50					>5 µM
CNc1ncnc2c1ncn2[C@@H]1C[C@H](CO)[C@H]1CO		EC50	cytopathic effect / trypan blue		IIIB	ATH8	>500 µM
Cc1cc(C#Cc2cccnc2)cc(C)c1Oc1ccnc(Nc2ccc(C#N)cc2)n1	Y181C	EC50	MTT		IIIB	MT-4	0.065 µM
O=c1[nH]cnc2c1ncn2[C@@H]1C[C@H](CO)[C@H]1CO		EC50	cytopathic effect / trypan blue		IIIB	ATH8	>500 µM
CO[C@H]1[C@@H](O)[C@H](n2cnc3c(N)ncnc32)[C@@H](O)[C@H](O)[C@@H]1O		EC50	cytopathic effect / MTT		IIIB	MT-4	<10 µg/mL
CC[C@H](C)[C@H](N)C(=O)O.[Na+]		EC50	luciferase		NL4-3		0.1 µM
Cc1cn([C@@H]2O[C@H](CO[Si](C)(C)C(C)(C)C)[C@@]3(OS(=O)(=O)C=C3N)[C@H]2O[Si](C)(C)C(C)(C)C)c(=O)[nH]c1=O	RT-Y181C	EC50	cytopathic effect / XTT		UC040-R (RT-Y181C)	CEM + CEM-SS	>10 µM
Cc1cc(C#Cc2ccccc2N)cc(C)c1Oc1ccnc(Nc2ccc(C#N)cc2)n1	Y181C	EC50	MTT		IIIB	MT-4	1.286 µM
CC1CCCCN1CCCCNCc1ccc(CNCCCCN2CCCCC2C)cc1		EC50	MTT			MT-4	0.76 µM
Cc1ccnc2c1NC(=O)c1cccnc1N2C1CC1	RT-V108I	EC50	cytopathic effect / XTT		NL4-3 (RT V108I)	CEM + CEM-SS	0.06 µM
CO[C@@H]1[C@@H](O)[C@@H](O)[C@H](O)[C@H](O)[C@H]1n1ccc(N)nc1=O		EC50	cytopathic effect / MTT		IIIB	MT-4	<10 µg/mL
CC(C)(C)NC(=O)[C@@H]1CCCN1C(=O)[C@@H](O)[C@H](Cc1ccccc1)NC(=O)[C@H](CC(N)=O)NC(=O)COc1cccc2ccccc12		EC90	p24		RF	MT-2	0.14–0.15 µM
COc1c(N2CCN(CC(=O)OC[C@@H]3CC[C@H](n4cnc5c(=O)[nH]cnc54)O3)CC2)c(F)cc2c(=O)c(C(=O)O)cn(C3CC3)c12		EC50	cytopathic effect / MTT		IIIB	MT-4	0.82 µM
Nc1ccn([C@H]2CC[C@@H](CO)O2)c(=O)n1		EC90			RF	MT-2	0.16 µg/mL
C/C=C/CSc1cc(NC(=S)c2ccsc2C)ccc1Cl		EC50	cytopathic effect / XTT		WEJO	PBMC	0.5 µM
CCOC(=O)C(=O)CC(=O)c1cccc(Oc2ccnc(Nc3ccc(C#N)cc3)n2)c1	K103N	EC50	MTT		IIIB	MT-4	>14 µM
S=C(NCCc1ccccn1)Nc1ccc(Br)cn1	RT-L100I Y188H	EC50	cytopathic effect / XTT		22(RT-L100I Y188H)	MT-4	7 µM
CC1=CC2=C(C(C)C)C(O)C(=O)/C(=C\NC(C)(C)C(=O)O)C2C(O)=C1c1c(C)cc2c(C(C)C)c(O)c(O)c(C=NC(C)(C)C(=O)O)c2c1O.[Na+].[Na+]		EC50	p24 / ELISA / antigen		IIIB	TZM-bl	0.85 µM
CCCc1cc(=O)oc2c3c(c4c(c12)OC(C)(C)C=C4)O[C@@H](C)C(C)=C3		EC50	cytopathic effect / MTT		IIIB	CEM + CEM-SS	>24.7 µM
C[C@@H]1C[C@@H]([C@H](O)CC2CC(=O)NC(=O)C2)C(=O)[C@@H](C)C1		EC90			RF	MT-2	0.8 µg/mL
CCN1c2ncccc2N(C)C(=O)c2sc3cccnc3c21		EC50	cytopathic effect		IIIB	C8166	0.04 µM
Cc1cn([C@H]2C[C@H](N=[N+]=[N-])[C@@H](CO)O2)c(=O)[nH]c1=O		EC50	MTT		ROD	MT-4	>7.48 µM
C[C@H](N)C(=O)O.[Na+]		EC50	luciferase		NL4-3		0.16 µM
Cc1cn([C@H]2CC[C@H](CO)O2)c(=O)[nH]c1=O		EC50	MTT / syncytia		IIIB	MT-4	>1000 µM
CCc1csc(NC(=S)NCCc2c(F)cccc2F)n1		EC50	cytopathic effect		IIIB	MT-4	0.03 µM
CC(C)(C)NC(=O)[C@@H]1C[C@@H]2CCCC[C@@H]2CN1C[C@@H](O)[C@H](Cc1ccccc1)NC(=O)[C@H](CC(N)=O)NC(=O)c1ccc2ccccc2n1		EC50	p24		ESP2-0	PBMC	0.005 µM
CC(C)(C)NC(=O)[C@@H]1[C@H]2CCCC[C@H]2CN1C(=O)[C@@H](O)[C@H](Cc1ccccc1)NC(=O)[C@H](CC(N)=O)NC(=O)COc1cccc2ccccc12		EC90	p24		RF	MT-2	0.144 µM
CCN1c2ncccc2N(C)C(=S)c2oc3cccnc3c21		EC50	cytopathic effect		NDK	MT-4	0.2 µM
Cc1ccnc2c1NC(=O)c1cccnc1N2C1CC1	K103N	EC50	MTT		IIIB	MT-4	3.551 µM
CC1=CC2=C(C(C)C)C(O)C(=O)/C(=C\N[C@H](CC(C)C)C(=O)O)C2C(O)=C1c1c(C)cc2c(C(C)C)c(O)c(O)c(C=N[C@@H](CC(C)C)C(=O)O)c2c1O.[Na+].[Na+]		EC50	luciferase / reporter gene		NL4-3	TZM-bl	0.22 µM
O=C(Cc1ccc(CC(=O)NCCN2CCOCC2)cc1)NCCN1CCOCC1		EC50	MTT			MT-4	>299 µM
NC(=O)c1ncn([C@@H]2O[C@H](CO)[C@@H](O)[C@H]2O)c1N		EC50	RT activity	16 h	IIIB	CEM + CEM-SS	>250 µM
CCOP(=O)(N[C@@H](CC(C)C)C(=O)OC)OC[C@H]1O[C@@H](n2cc(C)c(=O)[nH]c2=O)C[C@@H]1N=[N+]=[N-]		EC50	cytopathic effect		NDK	MOLT-4	<1 µg/mL
Cc1occc1C(=S)Nc1ccc(Cl)c(/C=N/OC(C)(C)C)c1	RT-Y181C	EC50	cytopathic effect / XTT		E BPTU-resistant (RT Y181C)	CEM + CEM-SS	0.06 µM
Cc1cn([C@@H]2O[C@@H](CO)[C@@H](N)[C@H]2O)c(=O)[nH]c1=O		EC50	MTT / syncytia		IIIB	MT-4	>1000 µM
O=c1[nH]cnc2c1ncn2[C@H]1CC[C@@H](CO)O1		EC50	cytopathic effect / MTT		IIIB	MT-4	4.8 µM
Nc1ccn([C@H]2CC[C@@H](CO)O2)c(=O)n1		EC50	cytopathic effect / XTT / RT activity	5 d	J4A ddC-resistant	MT-2	8 µM
C/C=C(/C)C(=O)OC1c2cc3c(c(OC)c2-c2c(cc4c(c2OC)OCO4)C[C@H](C)[C@]1(C)O)OCO3		EC50	p24		IIIB	H9	>41 µg/mL
CCOP(=O)(N[C@@H](C)C(=O)OC)OC[C@H]1O[C@@H](n2cc(C)c(=O)[nH]c2=O)C[C@@H]1N=[N+]=[N-]		EC50	cytopathic effect		NDK	MOLT-4	4.9 µg/mL
Cc1cn([C@@H]2O[C@@H](CO)C[C@@H]2O)c(=O)[nH]c1=O		EC50	MTT / syncytia		IIIB	MT-4	>1000 µM
Cc1cn([C@H]2C[C@H](N=[N+]=[N-])[C@@H](CO)O2)c(=O)[nH]c1=O		EC50	RT activity		LAV	H9	<0.5 µM
CC(C)CN(C[C@@H](O)[C@H](Cc1ccccc1)NC(=O)O[C@H]1CCOC1)S(=O)(=O)c1ccc(N)cc1		EC50	p24		NL4-3	MT-4	<0.08 µM
Cc1ccnc2c1NC(=O)c1cccnc1N2C1CC1	RT-V179D	EC50	cytopathic effect / XTT		NL4-3	CEM + CEM-SS	0.03 µM
CC(C)(C)NC(=O)[C@@H]1C[C@@H]2CCCC[C@@H]2CN1C[C@@H](O)[C@H](Cc1ccccc1)NC(=O)[C@H](CC(N)=O)NC(=O)c1ccc2ccccc2n1		EC50	cytopathic effect / MTT		IIIB	MT-4	<0.0005 µg/mL
CC(=O)O[C@H]1C2(C=O)C(C=O)=CC[C@@]1(C)CCC2[C@H](C)CCC=C(C)C		EC50	p24		Subtype B isolate BR48	PM1	70 µg/mL
CO[C@H]1[C@@H](O)[C@H](n2cnc3c(N)ncnc32)[C@@H](O)[C@H](O)[C@@H]1O.O=C(O)/C=C/C(=O)O		EC50	cytopathic effect / MTT		IIIB	MT-4	>10 µg/mL
C=C(C#N)c1cc(C)c(Oc2ccnc(Nc3ccc(CN4CCN(S(C)(=O)=O)CC4)cc3)n2)c(C)c1	K103N	EC50	MTT		IIIB	MT-4	0.0036 µM
CC1=CC2=C(C(C)C)C(O)C(=O)/C(=C\N[C@@H](C(=O)O)C(C)C)C2C(O)=C1c1c(C)cc2c(C(C)C)c(O)c(O)c(C=N[C@H](C(=O)O)C(C)C)c2c1O.[Na+].[Na+]		EC50	p24 / ELISA / antigen		IIIB	TZM-bl	0.68 µM
CO[C@@H]1[C@@H](O)[C@@H](O)[C@H](O)[C@H](O)[C@H]1n1ccc(N)nc1=O.O=C(O)/C=C/C(=O)O		EC50	cytopathic effect / MTT		IIIB	MT-4	>10 µg/mL
CCCc1cc(=O)oc2c3c(c4c(c12)OC(C)(C)C=C4)O[C@H](CC)[C@@H](C)C3=O		EC50	cytopathic effect / MTT		IIIB	CEM + CEM-SS	>6.8 µM
C=C(C)[C@H](O)COc1cc(OC)c2c(c1)C(=O)c1c(O)ccc(O)c1-2		EC50	MTT		IIIB	C8166	1.46 µg/mL
N#CC[C@H](C1CCCC1)n1cc(-c2ncnc3[nH]ccc23)cn1		EC50	p24 / ELISA	inside macrophages	BaL	Macrophage	0.3 µM
CCCc1cc(=O)oc2c3c(c4c(c12)OC(C)(C)C=C4)O[C@@H](C)[C@H](C)[C@H]3O		EC50	cytopathic effect / MTT		G910-6 AZT-resistant	MT-2	>25 µM
O=c1ccn([C@H]2CC[C@@H](CO)O2)c(=O)[nH]1		EC50	p24		GBB	JM	100 µg/mL
Cc1cn([C@H]2C[C@H](N=[N+]=[N-])[C@@H](CO)O2)c(=O)[nH]c1=O		EC50	p24		IIIB	MOLT-4	1 µM
Nc1nc2c(ncn2[C@H]2CC[C@@H](CO)O2)c(=O)[nH]1		EC50	cytopathic effect / XTT / RT activity	5 d	IIIB	MT-2	4.1 µM
CC(C)[C@H](NC(=O)COc1cccc2ccccc12)C(=O)N[C@@H](Cc1ccccc1)[C@H](O)C(=O)N1[C@H](C(=O)NC(C)(C)C)C[C@@H]2CCCC[C@@H]21		EC90	p24		RF	MT-2	0.033–0.12 µM
Cc1cc(/C=C/c2ccccc2)cc(C)c1Oc1ccnc(Nc2ccc(C#N)cc2)n1	L100I	EC50	MTT		IIIB	MT-4	0.322 µM
c1cc(CCNCCN2CCCCC2)ccc1CCNCCN1CCCCC1		EC50	MTT			MT-4	0.26 µM
Nc1ccn([C@H]2CC[C@@H](CO)O2)c(=O)n1		EC50	cytopathic effect / trypan blue		IIIB	ATH8	<0.2 µM
O=C(CN1CCN(c2ccccc2)CC1)OC[C@@H]1CC[C@H](n2cnc3c(=O)[nH]cnc32)O1		EC50	cytopathic effect / MTT		IIIB	MT-4	1.28 µM
Cc1cc(S(N)(=O)=O)ccc1NC(=O)COc1ccc(Cl)cc1C(=O)c1cc(Cl)cc(C#N)c1	RT-V108I Y181C	EC50	β-galactosidase		NNRTI-resistant (RT V108I Y181C)	MAGI	0.0009 µM
O=C(Cc1ccc(CC(=O)NCCN2CCCCC2)cc1)NCCN1CCCCC1		EC50	MTT			MT-4	4.82 µM
N#Cc1ccc(Nc2nccc(Oc3ccc(C(=O)CC(=O)C(=O)O)cc3)n2)cc1	Y181C	EC50	MTT		IIIB	MT-4	>48 µM

The last 9 rows once more:

structure | mutations | endpoint | read by | setting | strain or isolate | cells | value
Nc1nc2c(ncn2[C@H]2CC[C@@H](CO)O2)c(=O)[nH]1 |  | EC50 | cytopathic effect / XTT / RT activity | 5 d | IIIB | MT-2 | 4.1 µM
CC(C)[C@H](NC(=O)COc1cccc2ccccc12)C(=O)N[C@@H](Cc1ccccc1)[C@H](O)C(=O)N1[C@H](C(=O)NC(C)(C)C)C[C@@H]2CCCC[C@@H]21 |  | EC90 | p24 |  | RF | MT-2 | 0.033–0.12 µM
Cc1cc(/C=C/c2ccccc2)cc(C)c1Oc1ccnc(Nc2ccc(C#N)cc2)n1 | L100I | EC50 | MTT |  | IIIB | MT-4 | 0.322 µM
c1cc(CCNCCN2CCCCC2)ccc1CCNCCN1CCCCC1 |  | EC50 | MTT |  |  | MT-4 | 0.26 µM
Nc1ccn([C@H]2CC[C@@H](CO)O2)c(=O)n1 |  | EC50 | cytopathic effect / trypan blue |  | IIIB | ATH8 | <0.2 µM
O=C(CN1CCN(c2ccccc2)CC1)OC[C@@H]1CC[C@H](n2cnc3c(=O)[nH]cnc32)O1 |  | EC50 | cytopathic effect / MTT |  | IIIB | MT-4 | 1.28 µM
Cc1cc(S(N)(=O)=O)ccc1NC(=O)COc1ccc(Cl)cc1C(=O)c1cc(Cl)cc(C#N)c1 | RT-V108I Y181C | EC50 | β-galactosidase |  | NNRTI-resistant (RT V108I Y181C) | MAGI | 0.0009 µM
O=C(Cc1ccc(CC(=O)NCCN2CCCCC2)cc1)NCCN1CCCCC1 |  | EC50 | MTT |  |  | MT-4 | 4.82 µM
N#Cc1ccc(Nc2nccc(Oc3ccc(C(=O)CC(=O)C(=O)O)cc3)n2)cc1 | Y181C | EC50 | MTT |  | IIIB | MT-4 | >48 µM

Two numbers with a dash give a range or band. Conditions beyond the fields shown may differ between rows. ECn is the concentration giving n% inhibition of infection, replication or growth.